The record followed here is US20050186197A1, “Peptide inhibitors of beta lactamases” (published 2005).

Where only a bound is given, the exact number is not on record here.

Assay [1] concerns the target Bla1 class A β-lactamase from Bacillus anthracis (Bacillus anthracis). As to the kind of experiment: β-lactamase inhibition assay (Pen V).
The target of assay [2] is T1, Bla1 class A β-lactamase from Bacillus anthracis (Bacillus anthracis).
T1 chain: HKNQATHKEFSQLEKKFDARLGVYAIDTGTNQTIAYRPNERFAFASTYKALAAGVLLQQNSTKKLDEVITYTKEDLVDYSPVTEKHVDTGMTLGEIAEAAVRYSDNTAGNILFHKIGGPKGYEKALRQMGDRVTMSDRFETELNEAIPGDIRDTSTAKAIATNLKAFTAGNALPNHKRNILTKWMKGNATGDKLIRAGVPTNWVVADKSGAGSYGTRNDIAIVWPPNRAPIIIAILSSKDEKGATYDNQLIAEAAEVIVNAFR
As to the kind of experiment: β-lactamase inhibition assay (Pen V), Ki from IC50 by Cheng-Prusoff.

Assay [3] concerns the target T1, Bla1 class A β-lactamase from Bacillus …. Nature of the assay: ratio of Ki values, β-lactamase inhibition assay.

As for RR-NH2 (peptide), in assay [1], the Ki is > 2000 µM.

B1: …-NH2 (peptide)
peptide: HSAYSDTRRGDYG
modifications: not checked
The molecule B1 had an inhibition constant Ki in assay [2] of 70 µM. The fold lower Ki than the Ki for inhibition of TEM-1 β-lactamase in assay [3] was found to be 4 fold.

B2: RRGHYY-NH2 (peptide)
peptide: RRGHYY
modifications: not checked
On to B2, for which the Ki in assay [2] came to 42 µM. Besides, in assay [3], the fold lower Ki than the Ki for inhibition of TEM-1 β-lactamase was 3 fold.

B3: AAGHYY-NH2 (peptide)
peptide: AAGHYY
modifications: not checked
In turn, B3 yielded an inhibitory constant (Ki) in assay [2] of 72 µM. For the same molecule, in assay [3], the fold increase in Ki relative to RRGHYY-NH2 is 2 fold.
